Compound potency records, mixed from different reports. Data source: NIAID ChemDB in PubChem.

All rows: tests in culture; agent: Rhinovirus; read by: cytopathic effect; endpoint: EC50

ECn: concentration that inhibits the pathogen or its effect by n%. Rows are shuffled and stem from different studies.

SMILES	strain	cell line	value
CSc1ccc(CCCOc2cc(C)c(-c3noc(C(F)F)n3)c(C)c2)nn1	serotypes 3 4 5 9 16 18 38 66 75 67	HeLa	0.03 µg/mL
CCCn1nc2ccc(OCCC3CCN(c4ccc(C)nn4)CC3)cc2n1	Serotype 14	MRC-5	0.139 µg/mL
COCc1cc(CCCOc2c(Cl)cc(-c3noc(C)n3)cc2Cl)on1	Serotype 1B	HeLa	0.018 µg/mL
CCOC(=O)c1ccc(OCCCCC(=O)c2ccc(Cl)cc2)cc1	Serotype 14	HeLa	2.7 µM
CCOc1cnc2cc(OCCC3CCN(c4ccc(C)nn4)CC3)ccc2n1	Serotype 2	MRC-5	0.012 µg/mL
CSc1nsc(-c2ccc(OCCCCOc3ccccc3)cc2)c1C#N	Serotype 72 (group A)	HELA-OHIO	>20 µM
CSc1nsc(-c2ccccc2)c1C#N	Serotype 63 (group B)	HELA-OHIO	>80 µM
CCN(CC)c1noc(-c2ccc(O)cc2O)c1Cc1c(N(CC)CC)noc1-c1ccc(OC)cc1O	Serotype 14	HeLa	>3.5 µM
CSc1nc2ccc(OCCC3CCN(c4ccc(Cl)nn4)CC3)cc2o1	Serotype 2	MRC-5	0.067 µg/mL
CC(=O)Nc1ccc(Cc2ccc(S(C)(=O)=O)cn2)cc1	TYPE 2	HeLa	>10 µg/mL
N#Cc1cc([N+](=O)[O-])ccc1Oc1ccc(Cl)c(Cl)c1	TYPE 64	HeLa	0.2 µg/mL
CCOC(=O)c1ccc(OCCCCC(=O)c2ccc(C)c(Cl)c2)cc1	Serotype 2	HeLa	>267 µM
COc1ccc(-c2cc(N3CCCCC3)no2)c(O)c1	Serotype 14	HeLa	>364 µM
CCOc1nc2ccc(OCCC3CCN(c4nnnn4C)CC3)cc2o1	Serotype 2	MRC-5	0.237 µg/mL
CSc1nsc(-c2ccc(OCCCc3ccccc3)cc2)c1C#N	Serotype 63 (group B)	HELA-OHIO	>20 µM
CCOc1cc(OC)ccc1-c1cc(N(CC)CC)no1	Serotype 86 (group A)	HeLa	>90 µM
CS(=O)(=O)c1ccc(Oc2ccc(C(=O)c3ccccc3)cc2)nc1	TYPE 68	HeLa	>10 µg/mL
COc1ccc(-c2cc(N3CCCC3)no2)c(O)c1	Serotype 51 (group B)	HeLa	104 µM
CS(=O)(=O)c1ccc(NCc2ccc(Cl)c(Cl)c2)nc1	TYPE 13	HeLa	>10 µg/mL
COc1ccc(-c2snc(SC)c2C#N)cc1	Serotype 15 (group B)	HELA-OHIO	>12 µM
CCOc1cnnc2ccc(OCCC3CCN(c4ccc(C)nn4)CC3)cc12	Serotype 2	MRC-5	0.246 µg/mL
CCOC(=O)c1ccc(OCCC2CCN(c3ccc(C)nn3)CC2)cc1	Serotype 1A	WI-38	<0.1 µg/mL
COc1ccc(C(=O)CCCCOc2c(Cl)cc(C3=NCCO3)cc2Cl)cc1	Serotype 14	HeLa	>237 µM
COc1ccc(-c2cc(N(C)C)no2)c(O)c1	Serotype 2	HeLa	>427 µM
CSc1nsc(-c2ccc(OCCCOc3ccc(C#N)cc3)cc2)c1C#N	Serotype 29 (group B)	HELA-OHIO	>2 µM
C#CCOc1cc(OC)ccc1-c1cc(N(CC)CC)no1	Serotype 9 (group B)	HeLa	>40 µM
CCn1c2c(c(=O)c3cc(C(C)C)ccc31)Cc1ccccc1-2	TYPE 2	HELA-OHIO	0.54 µg/mL
CSc1nsc(-c2ccc(OCCOc3ccccc3)cc2)c1C#N	Serotype 51 (group B)	HELA-OHIO	>20 µM
Cc1c(-c2ccccc2)n(-c2cccc(F)c2)c2ccc(C(C)C)cc2c1=O	TYPE 2	HELA-OHIO	0.03 µg/mL
CCOC(=O)c1ccc(OCCCCC(=O)c2ccccc2)cc1	Serotype 2	HeLa	4.9 µM
CCCOc1nc2cc(OCCC3CCN(c4ccc(C)nn4)CC3)ccc2s1	Serotype 14	MRC-5	0.041 µg/mL
CCCc1ccc(CCCOc2ccc(-c3ccccc3)c(Br)c2)nn1	serotypes 3 4 5 9 16 18 38 66 75 67	HeLa	0.01 µg/mL
Cc1c(-c2ccccc2)n(-c2ccc(F)cc2)c2ccc(C(C)C)cc2c1=O	TYPE 1B/B632	HELA-OHIO	0.27 µg/mL
CS(=O)(=O)c1ccc(Cc2ccc(Br)cc2)nc1	TYPE 64	HeLa	0.6 µg/mL
Cc1ccc(C(=O)CCCCOc2ccc(C3=NCCO3)cc2)cc1	Serotype 2	HeLa	>296 µM
CCc1nc(-c2cc(C)c(OCCCc3cc(COC)no3)c(C)c2)no1	Serotype 15	HeLa	0.189 µg/mL
CSc1nsc(-c2ccc(OCc3ccccc3)cc2)c1C#N	Serotype 15 (group B)	HELA-OHIO	3 µM
N#Cc1ccc(OCCCCC(=O)c2ccccc2)cc1	Serotype 14	HeLa	140 µM
CSc1nsc(-c2ccc(OCCCCOc3ccc(C#N)cc3)cc2)c1C#N	Serotype 89 (group B)	HELA-OHIO	>2 µM
CSc1nsc(-c2ccc(OCc3ccccc3)cc2)c1C#N	Serotype 72 (group A)	HELA-OHIO	>50 µM
CS(=O)(=O)c1ccc(Cc2ccc(Cl)c(Cl)c2)nc1	TYPE 29	HeLa	2.5 µg/mL
CCOC(=O)c1ccc(OCCCCC(=O)c2ccc(F)cc2)cc1	Serotype 2	HeLa	6.1 µM
CCS(=O)(=O)c1cccnc1Oc1ccc(C(=O)c2ccccc2)cc1	TYPE 1A	HeLa	>10 µg/mL
Cc1ccc(CCCOc2c(C)cc(C#N)cc2C)o1	serotypes 2 14 1A 1B 6 21 22 15 25 30 50 67 89 86 41	HeLa	0.313 µg/mL
CCOC(=O)c1cc(Cl)c(OCCCCC(=O)c2ccc(OC)cc2)c(Cl)c1	Serotype 2	HeLa	3.6 µM
CCOc1cc(CCCOc2c(C)cc(-c3noc(C)n3)cc2C)on1	Serotype 21	HeLa	0.008 µg/mL
CCS(=O)(=O)c1ccc(NCc2ccc(Cl)c(Cl)c2)nc1C#N	TYPE 64	HeLa	0.6 µg/mL
CC(=O)c1ccc(CCCOc2ccc(-c3noc(C(F)F)n3)c(C)c2)nn1	serotypes 3 4 5 9 16 18 38 66 75 67	HeLa	0.04 µg/mL
CS(=O)(=O)c1ccc(NCc2ccc(Cl)cc2)nc1	TYPE 64	HeLa	1.6 µg/mL
CSc1ccc(C(=O)CCCCOc2ccc(C#N)cc2)cc1	Serotype 14	HeLa	>307 µM

The last 4 rows once more:

SMILES | strain | cell line | value
CCS(=O)(=O)c1ccc(NCc2ccc(Cl)c(Cl)c2)nc1C#N | TYPE 64 | HeLa | 0.6 µg/mL
CC(=O)c1ccc(CCCOc2ccc(-c3noc(C(F)F)n3)c(C)c2)nn1 | serotypes 3 4 5 9 16 18 38 66 75 67 | HeLa | 0.04 µg/mL
CS(=O)(=O)c1ccc(NCc2ccc(Cl)cc2)nc1 | TYPE 64 | HeLa | 1.6 µg/mL
CSc1ccc(C(=O)CCCCOc2ccc(C#N)cc2)cc1 | Serotype 14 | HeLa | >307 µM